Tests used:
[1] = target: SARS-CoV-2 Spike protein (Spike trimer) (SARS-CoV-2) (UniProt P0DTC2)
[2] = target: SARS-CoV-2 Spike protein (Spike trimer) (SARS-CoV-2) (UniProt P0DTC2); remark: listed apart in the source
[3] = target: SARS-CoV-2 Spike protein (Spike trimer) (SARS-CoV-2) (UniProt P0DTC2); remark: listed apart in the source
[4] = target: SARS-CoV-2 Spike protein (Spike trimer) (SARS-CoV-2) (UniProt P0DTC2); remark: listed apart in the source
[5] = target: SARS-CoV-2 Spike protein (Spike trimer) (SARS-CoV-2) (UniProt P0DTC2); remark: listed apart in the source
[6] = target: SARS-CoV-2 Spike protein (Spike trimer) (SARS-CoV-2) (UniProt P0DTC2); remark: listed apart in the source
[7] = target: SARS-CoV-2 Spike protein (Spike trimer) (SARS-CoV-2) (UniProt P0DTC2); remark: listed apart in the source
[8] = target: SARS-CoV-2 Spike protein (Spike trimer) (SARS-CoV-2) (UniProt P0DTC2); remark: listed apart in the source
[9] = target: SARS-CoV-2 Spike protein (Spike trimer) (SARS-CoV-2) (UniProt P0DTC2); remark: listed apart in the source
[10] = target: SARS-CoV-2 Spike protein (Spike trimer) (SARS-CoV-2) (UniProt P0DTC2); remark: listed apart in the source

What does the source list for Ty1-modified ClyA nanopore (ClyA-f-Ty1)?
Log10(tin (ms)), centre of the Gauss fit, at 115 pM Spike [1]: 1.23 Log10(ms); Log10(tin (ms)), centre of the Gauss fit, at 460 pM Spike [2]: 1.55 Log10(ms); Log10(tout (ms)), first peak of the Gauss fit, at 2.3 nM Spike [3]: 0.582 Log10(ms); Log10(tout (ms)), second peak of the Gauss fit, at 2.3 nM Spike [3]: 4.17 Log10(ms); Log10(tout (ms)), centre of the Gauss fit, at 230 pM Spike [4]: 0.884 Log10(ms); Log10(tout (ms)), centre of the Gauss fit, at 345 pM Spike [5]: 1.07 Log10(ms); Log10(tout (ms)), centre of the Gauss fit, at 460 pM Spike [6]: 1.59 Log10(ms); Log10(tin (ms)), centre of the Gauss fit, at 2.3 nM Spike [7]: 1.11 Log10(ms); Log10(tin (ms)), centre of the Gauss fit, at 345 pM Spike [8]: 1.29 Log10(ms); Log10(tout (ms)), centre of the Gauss fit, at 115 pM Spike [9]: 0.86 Log10(ms); Log10(tin (ms)), centre of the Gauss fit, at 230 pM Spike [10]: 1.47 Log10(ms)
